{"source": "ChEMBL document CHEMBL3124763", "about": "“Optimization of furin inhibitors to protect against the activation of influenza hemagglutinin H5 and Shiga toxin” (J Med Chem, 2014)", "key": {"[1]": {"assay": "Drug degradation in human DU145 cell culture medium assessed as deltaKKRT formation at 20 ug after 6 hrs by MALDI-TOF analysis", "conditions": "du-145, 6 h"}, "[2]": {"assay": "Drug degradation in human DU145 cell culture medium assessed as deltaRT formation at 20 ug after 6 hrs by MALDI-TOF analysis", "conditions": "du-145, 6 h"}}, "data": [{"smiles": "CC(=O)NN(CCCN=C(N)N)CC(=O)N[C@@H](C)C(=O)N[C@@H](CCCN=C(N)N)C(=O)N[C@@H](CCCN=C(N)N)C(=O)N[C@@H](CCCN=C(N)N)C(=O)N[C@@H](CCCCN)C(=O)N[C@@H](CCCCN)C(=O)NN(CCCN=C(N)N)CC(=O)N[C@H](C(N)=O)[C@@H](C)O", "values": [{"measurement": "Stability", "setting": "[1]", "result": "Unstable"}, {"measurement": "Stability", "setting": "[2]", "result": "Unstable"}]}]}
